Experiment [1] has as its target human N-type calcium channel (human) (UniProt Q00975). Nature of the experiment: cell-based or functional assay.
Experiment [2] has as its target human N-type calcium channel (human), Q00975. Put plainly: cell-based or functional assay.

ω-conotoxin FVIA: in experiment [1], the Blocking activity (%), 30 nM peptide stood at 94.7% and the Recovery (%), 30 nM peptide amounted to 69.7%.

In the case of CKGKGAKCSRLMYDCCTGSCRSGKC (modifications not checked) [ω-conotoxin MVIIA], in experiment [2], the Blocking activity (%), 30 nM peptide was 81.5% and the Recovery (%), 30 nM peptide turned out to be 39.5%.

(Values after patent US20100056456A1, “Omega conotoxins” (published 2010).)
